From patent publication US20220153815A1, “Compounds specific to coronavirus s protein and uses thereof” (ADAGIO THERAPEUTICS, published 2022)

Molecular target: SEC-purified SARS-CoV-2 RBD-SD1 (SARS-CoV-2, UniProt P0DTC2 319-591)
Test: SPR (Biacore X100), RBD-SD1 on NiNTA chip, Fab injected

B1: ADI-58126 Fab (Fab, V domains shown)
VH: not shown
VL: not shown
binding result: binds

B2: ADI-58120 Fab (Fab, V domains shown)
VH: not shown
VL: not shown
binding result: binds
